Compound potency records, mixed from different reports. Data source: NIAID ChemDB in PubChem.

All rows: whole-cell or culture tests; species: Candida albicans

Neighbouring rows are from separate reports.

smiles,strain or isolate,read-out,conditions,read by,result
CC(C)C(=O)CCC[C@@H]1CO[C@@](Cn2ccnc2)(c2ccc(F)cc2F)C1,B02630,MIC,-,-,50 µg/mL
C[C@@H](c1ncncc1F)[C@](O)(Cn1cncn1)c1ccc(F)cc1F,2038 (FLU-R),MIC,-,-,4 µg/mL
CC(C)C(=N)CCC=C1CO[C@@](Cn2cncn2)(c2ccc(F)cc2F)C1,IFO. 1385,MIC,-,-,6.25 µg/mL
CCCCCCCCCCCCN[C@H]1CCCNC(=O)[C@@H]2C[C@H](N)CN2C(=O)[C@H]([C@@H](C)O)NC(=O)[C@H](CCc2ccc(O)cc2)NC(=O)[C@@H]2C[C@@H](O)CN2C(=O)[C@H]([C@@H](C)O)NC1=O,ATCC 62376,MIC,-,-,0.78 µg/mL
OC(CCn1ccnc1)c1cccc(C(O)c2ccc(Br)cc2)c1,RTCC1024,MIC,-,broth dilution,>64 µg/mL
Cc1c(Sc2ccccc2)[n+](=O)c2cc(C(F)(F)F)ccc2n1[O-],Clinical isolate 16,MIC,-,-,15.6 µg/mL
C[C@@H](c1ncncc1F)[C@](O)(Cn1cncn1)c1ccc(F)cc1F,Isolate K1,MIC,-,-,0.007 µg/mL
CCCCCCCCN[C@H]1C[C@H]2C(=O)NCCC[C@H](NC(=O)c3ccc(-c4ccc(-c5ccc(OCCCCC)cc5)cc4)cc3)C(=O)N[C@@H]([C@@H](C)O)C(=O)N3C[C@H](O)C[C@H]3C(=O)N[C@@H](CCc3ccc(O)cc3)C(=O)N[C@@H]([C@@H](C)O)C(=O)N2C1,ATCC 38247,MIC,-,-,50 µg/mL
C[C@H]1[C@H](O)[C@@H](C)/C=C/C=C/C=C/C=C/C=C/C=C/C=C/[C@H](O[C@@H]2O[C@H](C)[C@@H](O)[C@H](N)[C@@H]2O)C[C@@H]2O[C@](O)(C[C@@H](O)C[C@@H](O)CC[C@H](O)[C@@H](O)C[C@@H](O)CC(=O)O[C@H]1C)C[C@H](O)[C@H]2C(=O)O,AD 83/004 (azole-resistant),MIC,-,-,≤0.03 µg/mL
C[C@@H](N1CCN(Cc2cn(-c3ccc(F)cc3)c3ccccc23)CC1)[C@](O)(Cn1cncn1)c1ccc(F)cc1F,ATCC MYA-1003,MIC80,-,resazurin,4 µg/mL
C[C@H]1[C@H](O)[C@@H](C)/C=C/C=C/C=C/C=C/C=C/C=C/C=C/[C@H](O[C@@H]2O[C@H](C)[C@@H](O)[C@H](N)[C@@H]2O)C[C@@H]2O[C@](O)(C[C@@H](O)C[C@@H](O)CC[C@H](O)[C@@H](O)C[C@@H](O)CC(=O)O[C@H]1C)C[C@H](O)[C@H]2C(=O)O,Fluconazole-resistant 4 isolates pooled,MFC50,-,-,0.5 µg/mL
Cc1c(S(=O)(=O)c2ccccc2)[n+](=O)c2ccccc2n1[O-],Clinical isolate 15,MIC,-,-,31.25 µg/mL
CC(/C=C/C=C(\C)C(O)C(C)C(=O)O[C@H]1C[C@@H](C)C=C2C=C[C@]3(C)O[C@@H](O)CC(=O)[C@]3(C)[C@H]21)=C\C=C\C(=O)O,AC3408,MIC,-,-,0.78 µg/mL
CC(C)C(=O)CCC[C@H]1CO[C@@](Cn2cccc2)(c2ccc(F)cc2F)C1,B02630,MIC,-,-,>100 µg/mL
CC(C)(C)c1ccc(COC(Cn2ccnc2)c2ccccc2)cc1,CA12,MIC,-,-,128 µg/mL
C[C@@H](O)[C@@H]1NC(=O)[C@H](CCc2ccc(O)cc2)NC(=O)[C@@H]2C[C@@H](O)CN2C(=O)[C@H]([C@@H](C)O)NC(=O)[C@@H](NC(=O)c2ccc(N3CCN(c4ccc(O)cc4)CC3)cc2)CCCNC(=O)[C@@H]2C[C@H](N)CN2C1=O,ATCC 62376,MIC,-,-,25 µg/mL
CC(C)C(=O)CCC[C@H]1CO[C@@](Cn2ccnc2)(c2ccc(F)cc2F)C1,CI-2,MIC,-,-,25 µg/mL
CO[C@H]1C[C@@H]2CC[C@@H](C)[C@@](O)(O2)C(=O)C(=O)N2CCCC[C@H]2C(=O)O[C@H]([C@H](C)C[C@@H]2CC[C@H](c3nn[nH]n3)[C@H](OC)C2)CC(=O)[C@H](C)/C=C(\C)[C@@H](O)[C@@H](OC)C(=O)[C@H](C)C[C@H](C)CCCC/C=C/1C,10231,MIC,-,-,>100 µg/mL
Clc1ccc(C(Cn2ccnc2)OCc2ccc(-c3ccccc3)cc2)c(Cl)c1,CA12,MIC,-,-,128 µg/mL
O=[n+]1c(Sc2ccccc2)c(CBr)n([O-])c2ccccc21,Clinical isolate 2,MIC,-,-,15.6 µg/mL
CCC(C)CC(C)CCCCCCCCC(=O)N[C@H]1C[C@@H](O)[C@H](NCCN)NC(=O)[C@@H]2[C@@H](O)CCN2C(=O)[C@H]([C@H](O)CCN)NC(=O)[C@H]([C@H](O)[C@@H](O)c2ccc(O)cc2)NC(=O)[C@@H]2C[C@@H](O)CN2C(=O)[C@H]([C@@H](C)O)NC1=O,CLY16997,MIC,-,broth dilution,>16 µg/mL
Clc1ccc(C(Cn2ccnc2)OCc2ccc(-c3ccccc3)cc2)cc1,PR1,MIC,-,-,>128 µg/mL
C=CCc1ccc(Cn2cc(CN3CCN([C@H](C)[C@](O)(Cn4cncn4)c4ccc(F)cc4F)CC3)c3ccccc32)cc1,ATCC 64548,MIC80,-,resazurin,0.125 µg/mL
CC(C)(C)c1ccc(COC(Cn2ccnc2)c2ccc(Cl)cc2)cc1,CA2,MIC,-,-,128 µg/mL
Cc1c(Cl)[n+](=O)c2cc(Cl)ccc2n1[O-],Clinical isolate 11,MIC,-,-,7.8 µg/mL
Clc1ccc(C(Cn2ccnc2)OCc2cccc3ccccc23)cc1,Y0109,MIC,-,-,>128 µg/mL
OC(CCn1ccnc1)c1cccc(C(O)c2ccc(Cl)c(Cl)c2)c1,RTCC1024,MIC,-,broth dilution,32 µg/mL
Cc1ccc(C(Cn2ccnc2)OCc2cccc3ccccc23)cc1,Y0109,MIC,-,-,>128 µg/mL
OC(Cn1cncn1)(Cn1cncn1)c1ccc(F)cc1F,Isolate HR-Micro,MIC50,48 h,-,1.56 µg/mL
C[C@@H](O)[C@@H]1NC(=O)[C@H](CCc2ccc(O)cc2)NC(=O)[C@@H]2C[C@@H](O)CN2C(=O)[C@H]([C@@H](C)O)NC(=O)[C@@H](NC(=O)c2ccccc2)CCCNC(=O)[C@@H]2C[C@H](N)CN2C1=O,ATCC 62376,MIC,-,-,>100 µg/mL
C(=C\c1ccccc1)/COC(Cn1ccnc1)c1ccccc1,PR1,MIC,-,-,>128 µg/mL
C[C@@H](N1CCN(Cc2cn(Cc3ccc(C(F)(F)F)cc3)c3cc(Cl)ccc23)CC1)[C@](O)(Cn1cncn1)c1ccc(F)cc1F,ATCC 90028,MIC80,-,resazurin,0.125 µg/mL
CCCCCOc1ccc(-c2ccc(-c3ccc(C(=O)N[C@H]4CCCNC(=O)[C@@H]5C[C@H](N)CN5C(=O)[C@H](CO)NC(=O)C(CCc5ccc(O)cc5)NC(=O)[C@@H]5C[C@@H](O)CN5C(=O)[C@H]([C@@H](C)O)NC4=O)cc3)cc2)cc1,ATCC 38247,MIC,-,-,0.2 µg/mL
C[C@@H](N1CCN(Cc2cn(-c3ccc(F)cc3)c3cc(Cl)ccc23)CC1)[C@](O)(Cn1cncn1)c1ccc(F)cc1F,ATCC MYA-1003,MIC80,-,resazurin,>128 µg/mL
O=C(CCn1ccnc1)c1cccc(C(O)c2ccc(Cl)cc2)c1,RTCC 1003,MIC,-,broth dilution,64 µg/mL
NC(=NC1CCCC1)c1ccc(-c2ccc(-c3ccc(C(N)=NC4CCCC4)cc3)o2)cc1,Isolate 17 (strain 12-99),MIC,-,-,12.5 µg/mL
CC(C)C(=O)CCC[C@H]1CO[C@@](Cn2cncn2)(c2ccc(F)cc2F)C1,CI-2,MIC,-,-,>100 µg/mL
CO[C@@H]1C[C@H](C[C@@H](C)[C@@H]2CC(=O)[C@H](C)/C=C(\C)[C@@H](O)[C@@H](OC)C(=O)[C@H](C)C[C@H](C)/C=C/C=C/C=C(\C)[C@H](N(OC)C(=O)N(C)C)C[C@@H]3CC[C@@H](C)[C@@](O)(O3)C(=O)C(=O)N3CCCC[C@H]3C(=O)O2)CC[C@H]1C(=O)ON(C)O,579A,MIC,-,-,>100 µg/mL
Nc1[nH]c(=O)ncc1F,Fluconazole-resistant,MIC90,-,-,2 µg/mL
C[C@H]1[C@H](O)[C@@H](C)/C=C/C=C/C=C/C=C/C=C/C=C/C=C/[C@H](O[C@@H]2O[C@H](C)[C@@H](O)[C@H](N)[C@@H]2O)C[C@@H]2O[C@](O)(C[C@@H](O)C[C@@H](O)CC[C@H](O)[C@@H](O)C[C@@H](O)CC(=O)O[C@H]1C)C[C@H](O)[C@H]2C(=O)O,purple,EC50,-,broth dilution,1 µM
Cc1ccc(C(O)c2cccc(C(O)CCn3ccnc3)c2)cc1,RTCC 1003,MIC,-,broth dilution,>64 µg/mL
CO[C@@H]1C[C@H](C[C@@H](C)[C@@H]2CC(=O)[C@H](C)/C=C(\C)[C@@H](O)[C@@H](OC)C(=O)[C@H](C)C[C@H](C)/C=C/C=C/C=C(\C)[C@H](N(O)C(=O)N(C)C)C[C@@H]3CC[C@@H](C)[C@@](O)(O3)C(=O)C(=O)N3CCCC[C@H]3C(=O)O2)CC[C@H]1C(=O)ON(C)O,579A,MIC,-,-,100 µg/mL
CC(C)(C)c1ccc(COC(Cn2ccnc2)c2ccc(Cl)cc2Cl)cc1,3M,MIC,-,-,128 µg/mL
OC(CN1CCN(c2ccc(OCc3ccncc3)cc2)CC1)(Cn1cncn1)c1ccc(F)cc1F,303052,MIC80,-,-,≤0.031 µg/mL
C[C@@H](N1CCN(Cc2cn(Cc3ccc(F)cc3F)c3ccccc23)CC1)[C@](O)(Cn1cncn1)c1ccc(F)cc1F,ATCC 36082,MIC80,-,resazurin,0.125 µg/mL
CC(=O)N[C@H]1CCCNC(=O)[C@@H]2C[C@H](N)CN2C(=O)[C@H]([C@@H](C)O)NC(=O)[C@H](CCc2ccc(O)cc2)NC(=O)[C@@H]2C[C@@H](O)CN2C(=O)[C@H]([C@@H](C)O)NC1=O,ATCC 38247,MIC,-,-,>100 µg/mL
Cc1ccc(C(C)C)c(O)c1,ATCC 10231,MIC,-,-,0.16 µg/mL
O=c1c(OC2CCCC2)c(N2CCN(S(=O)(=O)NCc3ccccc3)CC2)cnn1-c1cccc(Cl)c1,C-43,MIC,-,broth dilution,125 µg/mL
CO[C@H]1C[C@@H]2CC[C@@H](C)[C@@](O)(O2)C(=O)C(=O)N2CCCC[C@H]2C(=O)O[C@H]([C@H](C)C[C@@H]2CC[C@@H](C(=O)ON3CCNCC3)[C@H](OC)C2)CC(=O)[C@H](C)/C=C(\C)[C@@H](O)[C@@H](OC)C(=O)[C@H](C)C[C@H](C)CCCC/C=C/1C,10231,MIC,-,-,>100 µg/mL

A second listing of 4 rows from above:

{"smiles": "C[C@@H](O)[C@@H]1NC(=O)[C@H](CCc2ccc(O)cc2)NC(=O)[C@@H]2C[C@@H](O)CN2C(=O)[C@H]([C@@H](C)O)NC(=O)[C@@H](NC(=O)c2ccc(N3CCN(c4ccc(O)cc4)CC3)cc2)CCCNC(=O)[C@@H]2C[C@H](N)CN2C1=O", "strain or isolate": "ATCC 62376", "read-out": "MIC", "result": "25 µg/mL"}
{"smiles": "CCCCCCCCCCCCN[C@H]1CCCNC(=O)[C@@H]2C[C@H](N)CN2C(=O)[C@H]([C@@H](C)O)NC(=O)[C@H](CCc2ccc(O)cc2)NC(=O)[C@@H]2C[C@@H](O)CN2C(=O)[C@H]([C@@H](C)O)NC1=O", "strain or isolate": "ATCC 62376", "read-out": "MIC", "result": "0.78 µg/mL"}
{"smiles": "C[C@@H](c1ncncc1F)[C@](O)(Cn1cncn1)c1ccc(F)cc1F", "strain or isolate": "2038 (FLU-R)", "read-out": "MIC", "result": "4 µg/mL"}
{"smiles": "Cc1c(Sc2ccccc2)[n+](=O)c2cc(C(F)(F)F)ccc2n1[O-]", "strain or isolate": "Clinical isolate 16", "read-out": "MIC", "result": "15.6 µg/mL"}

ECn is the concentration giving n% inhibition of infection, replication or growth. An empty or dashed field is not shown. A number after MIC or MFC names an inhibition level or a share of isolates.